# In patent publication US11642359B2, “Nutritional composition for improving intestinal barrier integrity, preparation of the composition and method of treatment” (priority 2018, dated 2023):
# No dose or concentration is given here for some results.
# Assay: Growth-associated variables (body weight, body/tail length ratio, BMI, Lee Index) in rotavirus-infected suckling rats
# Type: in vivo, rat
# Conditions: mean ± S.E.M. (n = 12); for Body weight: oral once daily day 2-16; for Lee Index: (weight^0.33/length)×1000; for BMI: body weight/length^2
# [1] = day 8, RV-infected suckling rats
# [2] = day 16, RV-infected suckling rats
substance,measurement,setting,value
2′-fucosyllactose [2′-FL],Body weight,"day 8 (peak of diarrhea), RV (simian SA-11)-infected suckling rats",13.51 ± 0.19 g
same,Lee Index,[1],343.49 ± 2.46
same,Body/tail length ratio,[1],2.32 ± 0.03
same,BMI,[1],0.28 ± 0.01 g/cm^2
same,Body weight,"day 16 (end of study), RV-infected suckling rats",32.79 ± 0.50 g
same,Lee Index,[2],337.93 ± 3.48
same,Body/tail length ratio,[2],1.86 ± 0.05
same,BMI,[2],0.37 ± 0.01 g/cm^2
